For at least one entry, the source does not settle the construct or the ends of the probe.
What was measured:
Assay in all cases: EMSA
Details in all cases: EMSA: 1 nM probe, 25 mM Tris-HCl pH 8.0, 50 mM KCl, 5 mM MgCl2, 0.5 mM EDTA, 10% glycerol, room temperature 30 min; 5% native PAGE at 4 C; recombinant protein; residues 1-224; protein details: 6xHis (pET28a); label: 6-FAM at 5' end of both primers; probe letters rebuilt from the primers and the genome
[1] = target: PhoP R65A (Salmonella enterica serovar Typhimurium SL1344) (UniProt E1WFA1)
[2] = target: PhoP R118A (Salmonella enterica serovar Typhimurium SL1344) (UniProt E1WFA1)
[3] = target: PhoP R66A (Salmonella enterica serovar Typhimurium SL1344) (UniProt E1WFA1)
[4] = target: PhoP wild type (Salmonella enterica serovar Typhimurium SL1344) (UniProt E1WFA1)

Measured: binding result

ATCCTCTACAACCAGTACGCGCATCATCTCTTCTCCCTTGTGTTAACAATAAGAACAGTCTAGCGTTGATTATGGTGCTTTGGGGATAAACAGTTAATAAACCAGACAAATAGTCACCCTCTTTCTGAAGAAAAGAGGGTGAGGCAGGCATTATTTAAGTTCGTCGACCAGAGTCACAGCGCGA (double strand) [phoP promoter]
binds: all assays above

— paper PMC8811161
